Sequence variants of PSTVd stem 15 after infection

Data from the supplement of Wu et al. 2024, doi:10.1371/journal.ppat.1012142.

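A pool of all variants was put on leaves of three Nicotiana benthamiana plants. Progeny were sequenced from the inoculated region (day 5), the margin of the inoculated leaf (day 10) and systemic leaves (day 12).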

PSTVd intermediate strain, stem 15: wild type CUGGAGCGAUCGCUUCGG, pool pattern CUGGAGCGAUNGNNUNNG; upper and lower strand joined, each 5' to 3', the first 9 letters being the upper strand.

Numbers give reads per thousand; 0 = not seen among the reads, higher = more abundant. Each value is the mean of three plants. "Pool" is the share in the plasmid pool used as inoculum, on the same scale. The inoculated region was read from the minus strand, the other sites from the plus strand. For reference, wild type rose from 10.2 per thousand in the pool to 285, 367, 312 (inoculated region), 785, 865, 782 (leaf margin) and 854, 898, 915 (systemic leaves). With 36,693-63,082 reads a sample, very low values are single reads. The authors trace changes outside the varied positions to PCR and sequencing errors or to mutation in the plant; presence does not show that a variant is infectious alone.

sequence	pool	inoculated region	leaf margin	systemic leaves
CUGAAGCGAUGGACUGAG	0.0323	0.00620	0	0
CUGGAGCGACCGCUUCGG	0.0485	0.0967	0.125	0.116
CUGGAGCGAUAGAAUUCG	0.873	0.231	0.0197	0
CUGGAGCGAUAGACUCAG	1.03	0.507	3.84	0
CUGGAGCGAUAGACUUGG	0.808	0.243	0.0345	0
CUGGAGCGAUAGAGUAUG	0.808	0.279	0.0371	0
CUGGAGCGAUAGCCUGAG	0.857	0.340	0.0249	0
CUGGAGCGAUAGGCUGAG	0.760	0.303	0.0403	0
CUGGAGCGAUAGGGUAUG	1.00	0.270	0.0213	0
CUGGAGCGAUAGUAUGCG	0.889	0.308	0.0610	0
CUGGAGCGAUCGAAUCCG	0.840	0.294	0.0516	0
CUGGAGCGAUCGAAUUGG	0.970	0.267	0.0312	0
CUGGAGCGAUCGCUUACG	0.808	0.281	0.0472	0
CUGGAGCGAUCGCUUUAG	1.79	1.36	0.0394	0.0133
CUGGAGCGAUCGGAUCUG	0.792	0.346	0	0
CUGGAGCGAUGGAAUAGG	0.840	0.291	0.0144	0
CUGGAGCGAUGGAAUGUG	0.921	0.208	0.0381	0
CUGGAGCGAUGGAAUUCG	0.776	0.338	0.0282	0
CUGGAGCGAUGGAGUGUG	0.824	0.293	0.0213	0
CUGGAGCGAUGGAUUGCG	0.792	0.310	0.0414	0
CUGGAGCGAUGGCCUAUG	0.840	0.294	0.0265	0.00739
CUGGAGCGAUGGCGUCUG	0.727	0.360	0.0372	0
CUGGAGCGAUGGCUUGUG	0.986	0.316	0.0463	0
CUGGAGCGAUGGGAUACG	0.889	0.246	0.0350	0
CUGGAGCGAUGGGUUGGG	1.83	0.610	0.0249	0.0133
CUGGAGCGAUGGUAUCCG	1.05	0.297	0.0456	0
CUGGAGCGAUUGAAUCAG	0.873	0.208	0.0260	0
CUGGAGCGAUUGACUUAG	0.986	2.68	1.17	1.22
CUGGAGCGAUUGCAUAAG	0.937	0.257	0.0519	0
CUGGAGCGAUUGCCUCCG	0.970	0.251	0.0532	0
CUGGAGCGAUUGGCUGAG	0.808	1.80	1.11	0
CUGGAGCGAUUGGGUUGG	0.824	0.285	0.0235	0
CUGGAGCGAUUGUCUCCG	1.02	1.58	0.489	0.534
CUGGAGCGAUUGUGUCGG	0.873	0.289	0.0341	0
CUGGAUCGAUAGACUCUG	0.0162	0	0	0
UUGGAGCGAUGGCUUUGG	0.0162	0	0	0

Extract of 2 entries:

* CUGGAGCGAUAGACUUGG (pool 0.808) -> inoculated region 0.243; leaf margin 0.0345; systemic leaves 0
* CUGGAGCGAUGGAAUUCG (pool 0.776) -> inoculated region 0.338; leaf margin 0.0282; systemic leaves 0